Data from article PMC3020944, “Structure-Activity Relationship of Cinnamaldehyde Analogs as Inhibitors of AI-2 Based Quorum Sensing and Their Effect on Virulence of Vibrio spp”.
The exact form of at least one protein or probe is not confirmed. The comparison behind a weaker result is the experiment's own reference, which may not be listed here.

By UniProt entry, the sequences of proteins in these tests, tags left out. Where a name states a change or a piece, a line headed by the entry shows the natural chain unless it says otherwise.
UniProt P21308: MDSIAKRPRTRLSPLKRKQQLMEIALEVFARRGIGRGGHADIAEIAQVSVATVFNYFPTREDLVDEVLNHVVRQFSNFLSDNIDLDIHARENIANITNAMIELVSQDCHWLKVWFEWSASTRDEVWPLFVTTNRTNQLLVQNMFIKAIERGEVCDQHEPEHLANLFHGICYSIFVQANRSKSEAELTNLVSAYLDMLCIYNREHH

Biological target: GST-LuxR (Vibrio harveyi) (UniProt P21308)
Experiment: fluorescence anisotropy
Settings: value only in Fig. 2B, 30°C, fluorescence polarisation, excitation 480 nm, emission 535 nm, binding buffer, duplex annealed in NaCl-Tris-EDTA, recombinant protein, protein details: GST, label: 5' fluorescein on strand 1

Measured: binding result

TATTGATAAATTTATCAATAA (double strand) [V. harveyi consensus LuxR binding sequence]
binds more weakly: 50 uM 2-nitro-cinnamaldehyde | 50 uM 3,4-dichloro-cinnamaldehyde | 50 uM (E)-2-nonenal | 50 uM (E)-2-pentenal | 50 uM (E)-3-decen-2-one | 50 uM (E)-4-phenyl-3-buten-2-one | 50 uM cinnamaldehyde
